Record: PubChem BioAssay AID624099 (ICCB-Longwood, 2012)

Assay: 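Human genes that papillomavirus E2 requires to repress the HPV18 LCR promoter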 (primary screen)
Cells: human C33A cervical carcinoma cells (HPV-negative) stably expressing BPV1 E2 and an HPV18 LCR luciferase reporter
Reagents: siRNA pool against human genes, 40 nM
Duration: 72 h
Measured: 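Per-well luciferase luminescence, z-scored on each plate against the plate mean and SD with control wells left out, then averaged across three replicate plates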
Direction: mean z-score and z-score: higher = stronger reporter signal, weaker E2 silencing
Active means: 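Hit if mean z-score reaches 2 and two or more of three replicate z-scores also reach 2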
Here is a random part of about 21,000 reagents. In the full data, 497 (2.4%) got an active call. 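Higher z means weaker E2 silencing; only reporter increases were scored, and knock-downs that hurt cell survival may mask genuine repressor factors.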 Unmarked entries are inactive. Reagent sequences are not shown.

The opening 3 records, to show the layout:
{"Target gene":"ATP10D","mean z-score":-0.9,"z-score, replicate A":-1.04,"z-score, replicate B":-0.81,"z-score, replicate C":-0.86}
{"Target gene":"POLR3K","mean z-score":0.77,"z-score, replicate A":0.84,"z-score, replicate B":0.8,"z-score, replicate C":0.66}
{"Target gene":"LOC728626 (retired record)","mean z-score":1.29,"z-score, replicate A":1.12,"z-score, replicate B":1.45,"z-score, replicate C":1.31}

The list itself, from the start:
{"Target gene":"ATP10D","mean z-score":-0.9,"z-score, replicate A":-1.04,"z-score, replicate B":-0.81,"z-score, replicate C":-0.86}
{"Target gene":"POLR3K","mean z-score":0.77,"z-score, replicate A":0.84,"z-score, replicate B":0.8,"z-score, replicate C":0.66}
{"Target gene":"LOC728626 (retired record)","mean z-score":1.29,"z-score, replicate A":1.12,"z-score, replicate B":1.45,"z-score, replicate C":1.31}
{"Target gene":"GSC","mean z-score":0.64,"z-score, replicate A":0.75,"z-score, replicate B":0.51,"z-score, replicate C":0.68}
{"Target gene":"MT-ND4L","mean z-score":1.92,"z-score, replicate A":2.25,"z-score, replicate B":1.95,"z-score, replicate C":1.55}
{"Target gene":"CCL27","mean z-score":0.68,"z-score, replicate A":0.75,"z-score, replicate B":0.81,"z-score, replicate C":0.49}
{"Target gene":"CUX2","mean z-score":-0.08,"z-score, replicate A":-0.48,"z-score, replicate B":0.07,"z-score, replicate C":0.16}
{"Target gene":"TBC1D22A","mean z-score":1.62,"z-score, replicate A":1.56,"z-score, replicate B":1.95,"z-score, replicate C":1.35}
{"Target gene":"OR4K14","mean z-score":-1.56,"z-score, replicate A":-1.01,"z-score, replicate B":-1.73,"z-score, replicate C":-1.95}
{"Target gene":"TFAP2D","mean z-score":-0.36,"z-score, replicate A":-0.56,"z-score, replicate B":-0.29,"z-score, replicate C":-0.24}
{"Target gene":"S100A14","mean z-score":1.62,"z-score, replicate A":1.76,"z-score, replicate B":1.64,"z-score, replicate C":1.47}
{"Target gene":"MATN3","mean z-score":0.02,"z-score, replicate A":-0.17,"z-score, replicate B":0.13,"z-score, replicate C":0.09}
{"Target gene":"LOC402520 (retired record)","mean z-score":-0.04,"z-score, replicate A":0.2,"z-score, replicate B":-0.12,"z-score, replicate C":-0.2}
{"Target gene":"PNLIPRP1","mean z-score":0.39,"z-score, replicate A":0.34,"z-score, replicate B":0.32,"z-score, replicate C":0.49}
{"Target gene":"LOC387643 (retired record)","mean z-score":-0.54,"z-score, replicate A":-0.79,"z-score, replicate B":-0.63,"z-score, replicate C":-0.2}
{"Target gene":"NGB","mean z-score":0.88,"z-score, replicate A":0.77,"z-score, replicate B":1.03,"z-score, replicate C":0.85}
{"Target gene":"CCR8","mean z-score":1.4,"z-score, replicate A":1.54,"z-score, replicate B":1.14,"z-score, replicate C":1.51}
{"Target gene":"ITGA6","mean z-score":-0.17,"z-score, replicate A":-0.37,"z-score, replicate B":-0.07,"z-score, replicate C":-0.06}
{"Target gene":"MYO1C","mean z-score":-0.46,"z-score, replicate A":-0.53,"z-score, replicate B":-0.58,"z-score, replicate C":-0.27}
{"Target gene":"SAXO4","mean z-score":-0.08,"z-score, replicate A":0.29,"z-score, replicate B":0.08,"z-score, replicate C":-0.63}
{"Target gene":"TSC22D2","mean z-score":-0.06,"z-score, replicate A":-0.05,"z-score, replicate B":0,"z-score, replicate C":-0.13}
{"Target gene":"CAVIN4","mean z-score":-0.92,"z-score, replicate A":-0.78,"z-score, replicate B":-1.1,"z-score, replicate C":-0.87}
{"Target gene":"FOXC2","mean z-score":-0.15,"z-score, replicate A":-0.34,"z-score, replicate B":0.31,"z-score, replicate C":-0.41}
{"Target gene":"CYLC2","mean z-score":0.99,"z-score, replicate A":0.9,"z-score, replicate B":1.03,"z-score, replicate C":1.04}
{"Target gene":"BSX","mean z-score":-0.61,"z-score, replicate A":-0.26,"z-score, replicate B":-0.42,"z-score, replicate C":-1.17}
{"Target gene":"MRPL41","mean z-score":-0.53,"z-score, replicate A":-0.32,"z-score, replicate B":-0.51,"z-score, replicate C":-0.76}
{"Target gene":"PSMF1","mean z-score":0.55,"z-score, replicate A":0.86,"z-score, replicate B":0.26,"z-score, replicate C":0.53}
